Results of unrelated studies side by side (data: NIAID ChemDB).

Common to all: target-level tests; organism: Hepatitis C virus; protein: Nonstructural protein 5B

Blank or dashed fields: not listed here. Inhibition is in % at the dose shown (toxicity tests: loss of growth or viability). ICn is the concentration giving n% inhibition. Conditions beyond the fields shown may differ between rows. a–b is a range or a potency band.

compound | dose | read by | measure | strain or isolate | result
COc1ccc(CCC2(C3CCCC3)CC(O)=C(Sc3nc4[nH]ccc4c(=O)[nH]3)C(=O)O2)cc1 | - | - | IC50 | - | <1 µM
COc1nc(NCCN2CCOCC2)nc(Nc2ccc3cn[nH]c3c2)n1 | 10 µg/mL | - | inhibition | - | 46%
CNC(=O)c1c(-c2ccc(F)cc2)oc2cc(N(C(C)=O)S(C)(=O)=O)c(OC)cc12 | - | - | IC50 | - | ≤0.5 µM
COc1nc(NCCCn2ccnc2)nc(Nc2ccc3cn[nH]c3c2)n1 | 1 µg/mL | - | inhibition | - | 41%
COc1cc(OC)c(CCC2(C3CCCC3)CC(O)=C(Sc3cnccn3)C(=O)O2)cc1Cl | - | - | IC50 | - | <1 µM
CNC(=O)c1c(-c2ccc(F)cc2)oc2cc(N3CCOCC3)c(OCc3cscn3)cc12 | - | - | IC50 | - | ≤0.5 µM
Cc1cc(C)n2nc(SC3=C(O)CC(CCc4ccc(OCc5ccccc5)cc4)(C4CCCC4)OC3=O)nc2n1 | - | - | IC50 | - | <1 µM
CNC(=O)c1c(-c2ccc(Br)cc2)oc2ccc(OC(C)C)cc12 | - | - | IC50 | - | ≤0.5 µM
Cc1noc(C)c1COc1ccc(CCC2(C3CCCC3)CC(O)=CC(=O)O2)cc1 | - | - | IC50 | - | 10–50 µM
COc1nc(Nc2ccc3[nH]ncc3c2)nc(NN2CCOCC2)n1 | 0.1 µg/mL | - | inhibition | - | 15%
CNC(=O)c1c(-c2ccc(F)cc2)oc2cc(C3CCN(C(C)=O)C3)c(OC)cc12 | - | - | IC50 | - | ≤0.5 µM
CC1(c2ccc(CCC3(C4CCCC4)CC(=O)CC(=O)O3)cc2F)OCCO1 | - | - | IC50 | - | 1–10 µM
CNC(=O)CN1CCN(c2nc(Nc3ccc4cn[nH]c4c3)nc(OC)n2)CC1 | 1 µg/mL | - | inhibition | - | 11%
O=C1C=C(O)CC(CCc2ccc(OCc3ccc(Cl)c(Cl)c3)cc2)(C2CCCC2)O1 | - | - | IC50 | - | 10–50 µM
CNC(=O)c1c(-c2ccc(F)cc2)oc2cc(N(C)S(C)(=O)=O)c(OCc3ccc(F)cc3F)cc12 | - | - | IC50 | - | ≤0.5 µM
COc1nc(Nc2ccc3cn[nH]c3c2)nc(NN2CCN(C)CC2)n1 | 10 µg/mL | - | inhibition | - | 69%
O=C1CC(=O)OC(CCc2ccc(Cl)c(Cl)c2)(C2CCCC2)C1 | - | - | IC50 | - | 1–10 µM
CNC(=O)c1c(-c2ccc(F)cc2)oc2cc(N3CCOCC3)c(OC)cc12 | - | - | IC50 | - | ≤0.5 µM
COc1c(-c2ccc3cc(NS(C)(=O)=O)ccc3c2)cc(-n2ccc(=O)[nH]c2=O)cc1C(C)(C)C | - | nucleotide incorporation | IC50 | GT 1b-N | 0.0022 µM
CNC(=O)c1c(-c2ccc(F)cc2)oc2cc(N)c(OC(C)C)cc12 | - | - | IC50 | - | ≤0.5 µM
COc1nc(NCCc2ccccn2)nc(Nc2ccc3[nH]ncc3c2)n1 | 0.1 µg/mL | - | inhibition | - | 19%

2 of the rows above, restated:

compound | dose | read by | measure | strain or isolate | result
CNC(=O)c1c(-c2ccc(F)cc2)oc2cc(N(C(C)=O)S(C)(=O)=O)c(OC)cc12 | - | - | IC50 | - | ≤0.5 µM
COc1nc(Nc2ccc3[nH]ncc3c2)nc(NN2CCOCC2)n1 | 0.1 µg/mL | - | inhibition | - | 15%